Laboratory results: PubChem BioAssay AID504761 (Drosophila RNAi Screening Center, 2011)
The screen tested about 22,000 reagents; below is a random part of those with a known target gene and a result. Over the whole deposit, 116 (0.52%) got an active call. 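Calls depend on retest data that are not deposited; infection was ranked per plate without normalising between plates; the unit of the infection score is not given.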 Raw values vary from plate to plate and are shown uncorrected. Unmarked entries are inactive. A plus sign joins genes that one reagent is predicted to hit. The record does not give: the amount of reagent, the time to read-out.

Aim: 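Insect host genes that dengue virus relies on to spread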 (primary screen)
Cell system: D.Mel-2 cells from Drosophila
Knock-down reagent: long dsRNA against Drosophila genes
Treatment: infection with dengue virus type 2; dose and infection time not stated
Measured: 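Per well on two replicate plates, imaging gave the percent of cells positive for viral envelope protein, ranked by infection, and a nuclear count of cells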
Direction: infection score: higher = more virus-infected cells; cell count: higher = more cells in the well
Call rule: 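Low infection ranks in the two replicates (chance level up to 0.065) followed by a retest with a 1.5-fold or larger significant decrease, p below 0.05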
Calls: active = confirmed: knock-down lowers infection; inactive = not picked or not confirmed

| gene knocked down | dsRNA | infection score, replicate 1 | infection score, replicate 2 | cell count, replicate 1 | cell count, replicate 2 |
| --- | --- | --- | --- | --- | --- |
| CG13315 | DRSC09986 | 2.06 | 7.09 | 5716 | 5949 |
| CG34436 | DRSC15164 | 0.7 | 1.39 | 6155 | 6749 |
| Agpat1 | DRSC19879 | 13.2 | 14.1 | 5200 | 5197 |
| Agpat1 | DRSC19880 | 7.22 | 19 | 5717 | 6304 |
| Gr89a | DRSC15023 | 2.97 | 1.41 | 6268 | 6170 |
| Tmep | DRSC08215 | 14.7 | 3.97 | 5277 | 1057 |
| Tmep | DRSC26652 | 5.5 | 11.5 | 6278 | 6462 |
| CG32036 | DRSC10362 | 11.8 | 6.72 | 5556 | 5744 |
| CG32036 | DRSC28171 | 5.8 | 34.4 | 6987 | 4925 |
| CG31076 | DRSC16017 | 3.9 | 5.91 | 5745 | 6261 |
| CG12581 | DRSC12206 | 10.7 | 7.5 | 1815 | 6519 |
| CG12581 | DRSC12207 | 9.78 | 21.9 | 6445 | 5649 |
| CG32756 | DRSC23271 | 1.92 | 11.3 | 6088 | 6179 |
| CG32756 | DRSC25978 | 1.61 | 6.65 | 6969 | 6433 |
| Rpn10 | DRSC11876 | 9.3 | 9.86 | 3989 | 3916 |
| CtBP | DRSC16617 | 16.6 | 14.8 | 5341 | 4475 |
| CtBP | DRSC23712 | 2.99 | 2.2 | 5379 | 5225 |
| larp | DRSC14728 | 1.36 | 11.2 | 5521 | 5755 |
| larp | DRSC16984 | 2.33 | 4.35 | 5586 | 6178 |
| larp | DRSC21856 | 12.9 | 3.58 | 5025 | 6843 |
| larp | DRSC24427 | 1.64 | 4.61 | 5616 | 6292 |
| larp | DRSC28325 | 9.75 | 13.5 | 3303 | 5345 |
| Act79B | DRSC11604 | 4.15 | 13 | 6028 | 5691 |
| Act79B | DRSC25023 | 5.62 | 6.15 | 5728 | 5532 |
| Ldaf1 | DRSC17963 | 3.53 | 3.04 | 5670 | 6109 |
| Ldaf1 | DRSC25860 | 3.63 | 1.2 | 6199 | 6152 |
| CG32161 | DRSC22128 | 3.29 | 5.68 | 6285 | 7230 |
| CG5157 | DRSC10488 | 1.36 | 3 | 6083 | 5868 |
| CG5157 | DRSC27474 | 40.9 | 25.2 | 5185 | 6336 |
| nAChRbeta3 | DRSC00325 | 3.04 | 1.22 | 6191 | 6537 |
| cocoon | DRSC10916 | 1.17 | 1.05 | 6214 | 6408 |
| cocoon | DRSC28623 | 7.31 | 10.5 | 5516 | 5390 |
| sNPF | DRSC23403 | 5.08 | 1.35 | 5490 | 6655 |
| Cpr31A | DRSC02779 | 2.21 | 1.93 | 6962 | 6939 |
| Cpr31A | DRSC28742 | 15.5 | 23.2 | 5621 | 4328 |
| fs(1)N | DRSC18578 | 4.72 | 4.54 | 6061 | 5787 |
| Vha26 | DRSC12371 | 7.09 | 9.67 | 1551 | 4755 |
| Vha26 | DRSC25503 | 2.04 | 1.02 | 5108 | 5007 |
| Pif1 | DRSC00582 | 3.4 | 3.09 | 6501 | 6182 |
| gkt | DRSC00821 | 3.94 | 1.9 | 6295 | 6776 |
| SmydA-4 | DRSC19390 | 2 | 7.31 | 6917 | 6461 |
| SmydA-4 | DRSC21866 | 5.07 | 5.42 | 6748 | 6888 |
| SmydA-4 | DRSC26517 | 1.83 | 0.56 | 5948 | 6416 |
| CG9411 | DRSC20184 | 4.57 | 1.46 | 6301 | 6023 |
| CG9411 | DRSC26840 | 1.44 | 4.39 | 5849 | 6064 |
| CG11018 | DRSC06024 | – | 4.1 | 355 | 1244 |
| CG11018 | DRSC28771 | 8.04 | – | 2027 | 444 |
| ash2 | DRSC16902 | 4.21 | 13.8 | 6751 | 7042 |
| S-Lap2 | DRSC10628 | 1.97 | 3.94 | 6660 | 6449 |
| CG15638 | DRSC01875 | 3.43 | 4.94 | 6901 | 6950 |
| CG10467 + CG10469 | DRSC28645 | 20.6 | 14.6 | 5856 | 6081 |
| gammaSnap1 | DRSC04686 | 15.3 | 28.8 | 6204 | 5883 |
| gammaSnap1 | DRSC28381 | 12.9 | 16.9 | 5470 | 4446 |
| Sod1 | DRSC11286 | 3.24 | 4.05 | 5839 | 5727 |
| rg | DRSC17726 | 1.16 | 5.15 | 6036 | 6530 |
| rg | DRSC18049 | 2.82 | 1.2 | 6415 | 6654 |
| rg | DRSC29144 | 11 | 1.23 | 3494 | 567 |
| Nup133 | DRSC16150 | 17.7 | 21 | 3746 | 4012 |

Targets above whose target name begins with T or t (2):
| gene knocked down | dsRNA | infection score, replicate 1 | infection score, replicate 2 | cell count, replicate 1 | cell count, replicate 2 |
| --- | --- | --- | --- | --- | --- |
| Tmep | DRSC08215 | 14.7 | 3.97 | 5277 | 1057 |
| Tmep | DRSC26652 | 5.5 | 11.5 | 6278 | 6462 |
